Assay results as given in PubChem BioAssay AID1159524 (National Center for Advancing Translational Sciences (NCATS), 2015).
The entries are a selection whose mix differs from that of the whole data set. Inconclusive results are not listed. Calls of active or inactive are those of the source. The call rests on the fitted dose curve; tested in HEK293T cells.

Experiment: High Throughput Screening for Foot and Mouth Disease Virus Antivirals; further: read-out not given here; nearly all actives have a fitted effect of over 45% in size
Conditions: FMDV antiviral cell-based qHTS
Potency means the concentration at half of the fitted maximal effect.

**Q.** Which Potency does the source give for `CN(C)C(=O)c1cc([N+](=O)[O-])cc2c1-c1c(cc([N+](=O)[O-])cc1[N+](=O)[O-])C2=O` here?
**A.** active: 10 µM

**Q.** For `CCc1nc2c(n1)c1c(non1O)c1c2no[n+]1[O-]`, which Potency is on record?
**A.** active: 39.8 µM
